“And” between values parts separate entries of the source, which are not always exact repeats. Identical values can stand only once. Like-named read-outs stand apart in the source and are kept apart here.
How the values were obtained:
[1] = target: influenza polymerase PAC-PB1N interaction (His-tagged PA239-716 / GST-tagged PB1 1-25) (Influenza A virus, UniProt P03433); assay: biochemical; assay type: binding
[2] = system: influenza A virus A/Washington/29/2009 (H1N1); assay: in vitro; conditions: dog, MDCK
[3] = system: influenza A virus A/Texas/04/2009 (H1N1); assay: in vitro; conditions: dog, MDCK
[4] = system: influenza A virus A/Denmark/528/2009 (H1N1); assay: in vitro; conditions: dog, MDCK
[5] = system: influenza A virus A/Switzerland/9715293/2013 (H3N2); assay: in vitro; conditions: dog, MDCK
[6] = system: influenza A virus A/California/07/2009 (H1N1); assay: in vitro; conditions: dog, MDCK
[7] = system: influenza A virus A/Denmark/524/2009 (H1N1); assay: in vitro; conditions: dog, MDCK
[8] = system: influenza A virus A/WSN/33 (H1N1); assay: in vitro; conditions: dog, MDCK

## Oc1nc2ccccc2n1C1CCN(C(c2cccs2)c2nnnn2-c2ccc3c(c2)OCCO3)CC1 (centres unmarked) [Compound 9 m, 1‐(1‐{[1‐(2,3‐dihydro‐1,4‐benzodioxin‐6‐yl)‐1 H‐1,2,3,4‐tetrazol‐5‐yl](thiophen‐2‐yl)methyl}piperidin‐4‐yl)‐2,3‐dihydro‐1 H‐1,3‐benzodiazol‐2‐one]
[1]; PAC-PB1N ELISA IC50
  IC50: 15.1 ± 1.2 µM

## COc1cccc(C(c2nnnn2-c2ccc3c(c2)OCCO3)N2CCC(n3c(O)nc4ccccc43)CC2)c1OC (centres unmarked) [Compound 9k, 1‐(1‐{[1‐(2,3‐dihydro‐1,4‐benzodioxin‐6‐yl)‐1 H‐1,2,3,4‐tetrazol‐5‐yl](2,3‐dimethoxyphenyl)methyl}piperidin‐4‐yl)‐2,3‐dihydro‐1 H‐1,3‐benzodiazol‐2‐one]
[1]; PAC-PB1N ELISA IC50
  IC50: 7 ± 0.6 µM

## c1ccc(CCC(c2nnnn2-c2ccc3c(c2)OCCO3)N2CCC(c3c[nH]c4ccccc34)CC2)cc1 (centres unmarked) [Compound 9c, 3‐(1‐{1‐[1‐(2,3‐dihydro‐1,4‐benzodioxin‐6‐yl)‐1 H‐1,2,3,4‐tetrazol‐5‐yl]‐3‐phenylpropyl}piperidin‐4‐yl)‐1 H‐indole]
[1]; PAC-PB1N ELISA IC50
  IC50: > 26.9 µM and 26.9 µM

## O=c1[nH]c2ccccc2n1C1CCN(C(c2ccc(-c3ccccc3)cc2)c2nnnn2-c2ccc3c(c2)OCCO3)CC1 (centres unmarked) [Compound 9 f, 1‐[1‐({[1,1′‐biphenyl]‐4‐yl}[1‐(2,3‐dihydro‐1,4‐benzodioxin‐6‐yl)‐1 H‐1,2,3,4‐tetrazol‐5‐yl]methyl)piperidin‐4‐yl]‐2,3‐dihydro‐1 H‐1,3‐benzodiazol‐2‐one]
[1]; PAC-PB1N ELISA IC50
  IC50: > 30 µM

## C[C@@H](c1ccccc1)n1nnnc1[C@H](c1ccsc1)N1CCC(n2c(=O)[nH]c3ccccc32)CC1 [Compound 12a, 1‐{1‐[(S)‐{1‐[(1 S)‐1‐phenylethyl]‐1 H‐1,2,3,4‐tetrazol‐5‐yl}(thiophen‐3‐yl)methyl]piperidin‐4‐yl}‐2,3‐dihydro‐1 H‐1,3‐benzodiazol‐2‐one]
[2]
  selectivity ratio: > 167
[3]
  selectivity ratio: > 136
[4]
  selectivity ratio: > 167
[5]
  selectivity ratio: > 107
[6]
  selectivity ratio: > 115
[7]
  selectivity ratio: > 188
[8]
  selectivity ratio: > 214
[1]; PAC-PB1N ELISA IC50
  IC50: 7.6 ± 1.4 µM

## Oseltamivir carboxylate [reference compound]
[1]; read-out: PAC-PB1N ELISA IC50
  IC50: > 30 µM

## O=c1[nH]c2ccccc2n1C1CCN(C(c2ccccc2)c2nnnn2-c2ccc3c(c2)OCCO3)CC1 (centres unmarked) [Compound 9i, 1-(1-{[1-(2,3-dihydro‐1,4‐benzodioxin-6‐yl)‐1 H‐1,2,3,4‐tetrazol‐5‐yl](phenyl)methyl}piperidin‐4‐yl)‐2,3‐dihydro‐1 H‐1,3‐benzodiazol‐2‐one]
[1]; PAC-PB1N ELISA IC50
  IC50: 13.6 ± 0.9 µM

## C[C@@H](c1ccccc1)n1nnnc1[C@@H](c1ccsc1)N1CCC(n2c(=O)[nH]c3ccccc32)CC1 [Compound 12b, 1‐{1‐[(R)‐{1‐[(1 S)‐1‐phenylethyl]‐1 H‐1,2,3,4‐tetrazol‐5‐yl}(thiophen‐3‐yl)methyl]piperidin‐4‐yl}‐2,3‐dihydro‐1 H‐1,3‐benzodiazol‐2‐one]
[1]; PAC-PB1N ELISA IC50
  IC50: > 26.9 µM and 37 µM

## Cc1onc(-c2ccccc2)c1C(=O)N1CCN(c2ccc([N+](=O)[O-])cc2Cl)CC1 [Nucleozin, reference compound]
[1]; PAC-PB1N ELISA IC50
  IC50: > 30 µM

## Oc1nc2ccccc2n1C1CCN(C(CCc2ccccc2)c2nnnn2-c2ccc3c(c2)OCCO3)CC1 (centres unmarked) [Compound 5, 1‐(1‐{1‐[1‐(2,3‐dihydro‐1,4‐benzodioxin‐6‐yl)‐1,2,3,4‐tetrazol‐5‐yl]‐3‐phenylpropyl}piperidin‐4‐ yl)‐3 H‐1,3‐benzodiazol‐2‐one]
[2]
  selectivity ratio: 10.9
[3]
  selectivity ratio: 5
[6]
  selectivity ratio: 3.9
[7]
  selectivity ratio: 9.7
[8]
  selectivity ratio: 14.5
[1]; PAC-PB1N ELISA IC50
  IC50: 4.3 ± 0.1 µM

## O=c1[nH]c2ccccc2n1C1CCN(C(c2ccsc2)c2nnnn2-c2ccc3c(c2)OCCO3)CC1 (centres unmarked) [Compound 9o, 1‐(1‐{[1‐(2,3‐dihydro‐1,4‐benzodioxin‐6‐yl)‐1 H‐1,2,3,4‐tetrazol‐5‐yl](thiophen‐3‐yl)methyl}piperidin‐4‐yl)‐2,3‐dihydro‐1 H‐1,3‐benzodiazol‐2‐one]
[1]; PAC-PB1N ELISA IC50
  IC50: 9.9 ± 0.7 µM
